Reference: paper PMC2570929 (Emerging Infectious Diseases, 2008)
Values joined by “and” are separate entries in the source; they are usually repeats but may differ in a detail not shown here. Identical values can stand only once. No dose or concentration is given here for some results.

These molecules were tested on poliovirus Sabin strains 1, 2, and 3.
Format: cell-based

Row | SMILES | TIs
1 | CC(C)S(=O)(=O)n1c(N)nc2ccc(/C(=N/O)c3ccccc3)cc21 [Enviroxime] | 290–1,657
2 | OC(c1ccccc1)c1nc2ccccc2[nH]1 (stereo not drawn) [HBB, 2-(α-hydroxybenzyl)-benzimidazole] | > 1.3
3 | N=c1ccn(Cc2nc3ccccc3n2-c2ccc(F)cc2)cc1 [MRL-1237] | > 19
4 | NC(=O)c1ncn([C@@H]2O[C@H](CO)[C@@H](O)[C@H]2O)n1 [Ribavirin] | > 1.6 and > 1.8
